Laboratory results published in US20120207760A1, “Compositions and Methods for the Therapy and Diagnosis of Influenza” (THERACLONE SCIENCES, published 2012).
Changes are numbered by the printed parent chain.

B1: TCN-521 (3280_D18) (antibody, V domains shown)
VH: EVQLVQSGGGLVQPGGSLRLACVVSGFTVTSNYITWVRQAPGKGLEWVSVIYSHGRAYYSASVNGRFTISRHTSKNTVYLEMNSLRPEDTAVYYCAGGGLVGGYDEYFFDYWGQGTLATVSS
VL: ETVLTQSPGTLSLTPGERATLSCRVGQSVSGSHLAWYQQKPGQAPRLLIYGASSRATGIPDRFGGSVSGTDFTLTISRLEPEDSAVYYCQQYGDSRYTFGQGTKLEIK
B2: TCN-523 (5248_A17) (antibody, V domains shown)
VH: QVQLVQSGAEVKKPGSSVKVSCKASGGSFSNYAFSWVRQAPGQGLEWMGGTIPLLGTTNYAQKFQGRVTISADQFTSTAYMELGSLRSEDTAVYYCTRRKMTTAFDSWGQGTLVTVSS
VL: QPVLTQPPSASASLGASVTLTCTLSSAYSNYKVDWYQQRPGKGPRFVMRVGTGGIVGSKGDGIPDRFSVLGSGLNRYLTIKNIQEEDESDYHCGADHGSGSNFVSPYVFGGGTKLTVL
B3: TCN-563 (5237_B21) (antibody, V domains shown)
VH: QVQLAQSGAEVKRPGSSVKVSCTASGGIFRKNAISWVRQAPGQGLEWMGGIIAVFNTANYAQKFQGRVKITADESGNTAYMELSSLRSDDTAVYYCASHPKYFYGSGSYPDFWGQGTLVTVSS
VL: QSALTQPRSVSGSPGQSVTISCTGSSSDVGASNSVSWYQQHPGKAPKLVIYDVTERPSGVPHRFSGSKSGNTASLTVSGLQPEDEADYFCCAYGGKYLVVFGGGTKVTVL
B4: TCN-555 (5246_L16) (antibody, V domains shown)
VH: B3 VH with A5V, G66N, R87T
VL: B3 VL with V18I, S25G, V29I, Y51F, E83D
B5: TCN-526 (5084_C17) (antibody, V domains shown)
VH: EVLMVESGGGLVQPGGSVRLSCVASGFSFSSHWMTWVRQAPGKGLEWVANIEDDGGDKYYVDSVKGRFIISRDNAKNSVYLQMNSLRAEDTAVYFCARGSGSSDRSDYDPHYYYYLDVWGKGATVTVSS
VL: DIQLTQSPSSLSASVGDRVTITCRASQSISRYLNWYQQKPGKAPKLLLFAASTLLDGVPSRFSGSGSGTDFTLTISSLQPEDFATYYCQRNHSPSWTFGQGTRVEIK
B6: TCN-527 (5086_C06) (antibody, V domains shown)
VH: QVQLQESGPGLVKPSETLSLNCAVSGGSISNYYWSWIRQPPGKGLEWIGYISYNGRPKYNPSLTSRVTISVDTSKDQFSLELRSVTAADTALYYCARETRFGELLSPYDAFEIWGQGTMVTVSS
VL: DIQMTQSPSSLSASVGDRVTMTCRASQNIRSYLNWYQQRPGTAPKLLIYAASTLHSGVPSRFSGGGSGTDFTLTINNLQPEDFASYYCQQSYDNPQTFGQGTKVEIK
B7: TCN-528 (5087_P17) (antibody, V domains shown)
VH: QVQLVQSGSEVKKPGASVKVSCKASGYTFTNYDINWIRQAPGQGLEWMGWINPNSGTTGSAQRFQGRVTITVDTSITTVYMELSSLRSDDTAIYYCARGRELLRLQHFLTDSQSERRDCFDPWGQGTLVTVSS
VL: DIQMTQSPSSLSASVGDRVTITCRANQDIGIYLNWYQQNPGKVPKLLLHGASSLQGGVPSRFSASGSGTDFTLTIHSLQPEDLATYYCQQSRRLPYTFGQGTRVELK
B8: TCN-530 (5248_H10a) (antibody, V domains shown)
VH: QVQLVQSGAEVRKPGSSVKVSCKASGGPFMSYAIGWVRQAPGQGLEWMGGINPVFGRPHYAQKFQGRVTIATDDSTKTSYMELSSLTSEDTGMYYCASRYSRSSPGTFESWGQGTLVTVSS
VL: EIVMTQFPATLSVSPGERVTLSCRASQSVSNNLAWYQQKPGQPPRLLIYDASTRATGVPAKFSGTGSGTEFTLSISSLQSEDFAVYYCQQYHNWPPSYSFGLGTKLEIK
B9: TCN-531 (5091_H13) (antibody, V domains shown)
VH: EVQLVESGGDLVQPGRSLKLSCTGSGFTFGDYGVTWVRQAPGKGLEWVGFIRTRPWGGTADTAASVKGRFTISRDDSKSLAYLQMNSLKTEDTAVYYCCRDAPPNVEVASMTNWYFDLWGRGTLVTVSS
VL: DIQLTQSPSSLSASVGDRVTITCRASQGILNCLAWYQQKPGKVPNLLMYAASTLQSGVPSRFSGSGFGTDFTLTISSLQPEDVATYYCQTYGGVSTFGGGTKVEIR
B10: TCN-532 (5262_H18) (antibody, V domains shown)
VH: QVQLQESGPGLVKPSETLSLTCTVSGGSVSSETYYWSWIRQPPGKGLEWIGYIYYIGNTDYRPSLKSRVTISLDTSKNQFSLKLSSVTAADTAVYYCARGAYYDSSGYPAFYIWGQGTMVTVSS
VL: QSVLTQPPSVSGAPGQRVTISCTGSSSNIGSDYDVHWYKQLPGTAPKLLIFGNSNRPSGVPDRFSGSKSGTSASLAITGLQAEDEADYYCQSYDSSLSGFHVFGSGTKVTVL
B11: TCN-533 (5256_A17) (antibody, V domains shown)
VH: QVQLVQSGADVKKPGSSVTVSCKASGGSFSNYGINWVRQAPGQGLEWMGGIIPLINAPNYAPKFQGRVTITADMFSNIVSLQLTSLRTDDTAVYYCARRKMTTAIDYWGQGTLVTVSS
VL: QPVLSQPPSASASLGASVTLTCTLSSGFDNYQVAWYQQRPGKGPRFVMRVGNGGNVASKGDGIPDRFSVSGSGLNRYLTIKNIQEDDESDYYCGADHGSGNNFVSPYVFGGGTKLTVL
B12: TCN-534 (5249_B02) (antibody, V domains shown)
VH: QVQLVQSGAEVKKPGSSVKVSCRESGGTFNGYTITWVRQAPGQGLEWMGGIIPMMGTVNYAQKLQGRVTITTDYFTKTAYMDLNNLRSEDTAMYYCVKIRYTGQQLLWGQGTLVTVSS
VL: DIQMTQSPSTLSASIGDRVTITCRASQSIASWLAWYQQKPGKAPKLLIYEAVNLESGVPSRFSGSGSGTDFTLTISSLQPDDFATYFCQHYGTISQTFGGGTKVEIK
B13: TCN-535 (5246_P19) (antibody, V domains shown)
VH: QVQLVQSGSEVKKPGTSVKVSCTASGSVFTNYGISWVRQAPGQGLEWMGGIIPLFGAAKYAQKFQGRVTITADESTKTVYMELSRLTSKDTAIYFCAKAPRVYEYYFDQWGQGTPVTVSS
VL: EIVLTQSPGTLSLSPGERATLSCRASQSVSSSQLAWYQQKPGQAPRLIIYGASTRATGIPDRFSGSGSGTDFTLTIGRLEPEDFAVFFCQQYSTSPPTFGQGTKVDFK
B14: TCN-536 (5095_N01) (antibody, V domains shown)
VH: QVQLQQWGAGLLKPSETLSLTCAVYGGSFSVSGYYWSWIRQPPGRGLEWIGEISHGGSTNYNPSLKSRVTISVDTTKNQFSLRLSSVTAADTAVYYCARGTDPDTEVYCRVGNCAAFDYWGQGSLVTVSS
VL: EIILAQSPGTLSLSPGERATLSCRASQFVSTRSLAWYQQRPGQAPRLLIYGASSRATGIPDRFSGSGSGTDFTLTISRLEPEDFAVYYCQHYGYSPRYAFGQGSKVEIK
B15: TCN-539 (5056_A08) (antibody, V domains shown)
VH: QVQLVESGGGVVQPGRSLRLSCAASEITFITYAMHWVRQAPGKGLEWVALISDDGSNKFYADSVKGRFTISRDNSKNTLYLQMNSLRAEDTAAYYCAREGVYFDSGTYRGYFDYWGQETLVTVSS
VL: EIVLTQSPATLSLSPGERATLSCRASQSVSSYLAWYQQKPGQAPRLLIYDASNRATGIPARFSGSGSGTDFTLTISSLEPEDFAVYYCQQRSHWPPITFGQGTRLEIK
B16: TCN-540 (5060_F05) (antibody, V domains shown)
VH: QVQLVQSGGGVVQPGRSLRLSCAASGFTFSSYAMHWVRQAPGKGLEWVAIISYDGNDQYYTDSVKGRFTISRDSSKVYLQMHRLRPEDTAVYYCAKEFETSGYFHGSFDYWGQGILVTVSS
VL: QSALTQPASVSGSPGQSITISCTGTSSDVGGYNYVSWYQQHPGKAPKLLIYEVTNWPSGVSNRFSGSKSGNTASLTISGLQAEDEADYYCSSYAGSSTWVFGGGTRVTVL

Biological target: Hemagglutinin of influenza A/Wisconsin/67/05 (H3N2), on inactivated whole virions (Influenza A virus A/Wisconsin/67/2005 …)
Experiment: ELISA, B cell culture supernatant on inactivated whole virions

| Binder | OD450 |
| --- | --- |
| B1 | 1.1 OD450 |
| B2 | 0.08 OD450 |
| B3 | 0.07 OD450 |
| B4 | 0.06 OD450 |
| B5 | 3.65 OD450 |
| B6 | 0.07 OD450 |
| B7 | 0.24 OD450 |
| B8 | 0.06 OD450 |
| B9 | 3.45 OD450 |
| B10 | 3.67 OD450 |
| B11 | 0.1 OD450 |
| B12 | 0.07 OD450 |
| B13 | 0.08 OD450 |
| B14 | 3.66 OD450 |
| B15 | 2.85 OD450 |
| B16 | 3.65 OD450 |
